Experimental data: PubChem BioAssay AID504761 (Drosophila RNAi Screening Center, 2011)
Screen: 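Fly genes whose silencing reduces dengue virus type 2 infection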 (primary screen). Cell system: D.Mel-2 cells from Drosophila. Knock-down reagent: long dsRNA against Drosophila genes. Challenge: infection with dengue virus type 2; dose and infection time not stated. Read-out: 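Cells stained for dengue envelope protein and imaged; percent of infected cells per well on duplicate plates, ranked by infection, with stained nuclei counted for cell number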. Direction: infection score: higher = more virus-infected cells; cell count: higher = more cells in the well. Rule for the call: 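Very low infection ranking in both replicate wells (chance probability at most 0.065), then a retest showing infection dropped 1.5-fold or more at p below 0.05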. Meaning of the calls: active = confirmed: knock-down lowers infection; inactive = not picked or not confirmed.
The screen tested about 22,000 reagents; this is a random part of those with a known target gene and a result. In the full data, 116 (0.52%) are marked active. 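Calls depend on retest data that are not deposited; infection was ranked per plate without normalising between plates; the unit of the infection score is not given.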 Raw values vary from plate to plate and are shown uncorrected. A number with no mark means an inactive call. A plus sign joins genes that one reagent is predicted to hit. Reagent sequences are not shown. Not stated in the record: the amount of reagent, the time to read-out.

| gene knocked down | dsRNA | infection score, replicate 1 | infection score, replicate 2 | cell count, replicate 1 | cell count, replicate 2 |
| --- | --- | --- | --- | --- | --- |
| agt (GeneID 40816) | DRSC12611 | 10.3 | 2.31 | 5911 | 6275 |
| CG17712 (GeneID 33356) | DRSC00266 | 0.9 | 4.61 | 6235 | 5488 |
| CG11131 (GeneID 40511) | DRSC11636 | 14.6 | 8.11 | 5928 | 6694 |
| CG11131 (GeneID 40511) | DRSC21736 | 7.65 | 4.83 | 6278 | 6292 |
| CG11131 (GeneID 40511) | DRSC28565 | 10 | 5.89 | 4437 | 2562 |
| mip120 (GeneID 36499) | DRSC06960 | – | 2.5 | 398 | 839 |
| mip120 (GeneID 36499) | DRSC29182 | 30.6 | 29.6 | 4163 | 4252 |
| FucTB (GeneID 34260) | DRSC02745 | – | – | 662 | 497 |
| GluProRS (GeneID 42834) | DRSC14095 | 1.07 | 11.9 | 5396 | 5124 |
| fd3F + CG42499 (retired record) | DRSC18160 | 0.87 | 4.35 | 6555 | 6464 |
| fd3F + CG42499 (retired record) | DRSC18161 | 5.97 | 1.86 | 6617 | 6789 |
| fd3F + CG42499 (retired record) | DRSC28554 | 6.67 | 24.4 | 1169 | 6620 |
| CG10555 (GeneID 31771) | DRSC23202 | 1.51 | 12.1 | 6772 | 7143 |
| CG10555 (GeneID 31771) | DRSC27738 | 22.3 | 5.69 | 6669 | 6697 |
| bonsai (GeneID 37587) | DRSC04453 | 12.5 | 16.9 | 5041 | 4945 |
| bonsai (GeneID 37587) | DRSC24153 | 4.06 | 3.64 | 5564 | 5798 |
| CG32639 (GeneID 318134) | DRSC18972 | 1.51 | 3.94 | 6428 | 6240 |
| CG30288 (GeneID 246531) | DRSC22005 | 4.62 | 1.97 | 6795 | 6902 |
| CG30288 (GeneID 246531) | DRSC29991 | 6.86 | 11.3 | 6560 | 5821 |
| Acp53Ea (GeneID 36874) | DRSC05916 | 3.77 | 3.86 | 6929 | 6770 |
| Plap (GeneID 43978) | DRSC00678 | 0.81 | 5.09 | 6659 | 6320 |
| 5-HT2B (GeneID 41017) | DRSC16360 | 12.5 | 21.3 | 6467 | 5941 |
| 5-HT2B (GeneID 41017) | DRSC16362 | 7.84 | 4.33 | 6745 | 4138 |
| 5-HT2B (GeneID 41017) | DRSC25577 | 22.4 | 1.83 | 6282 | 6611 |
| CysRS (GeneID 36784) | DRSC05948 | 4.49 | 4.69 | 5610 | 5763 |
| CysRS (GeneID 36784) | DRSC26620 | 6.29 | 7.95 | 6199 | 5559 |

4 of these entries, set out differently:
mip120 (GeneID 36499) [DRSC06960] → infection score, replicate 2 = 2.5; cell count, replicate 1 = 398; cell count, replicate 2 = 839
mip120 (GeneID 36499) [DRSC29182] → infection score, replicate 1 = 30.6; infection score, replicate 2 = 29.6; cell count, replicate 1 = 4163; cell count, replicate 2 = 4252
FucTB (GeneID 34260) [DRSC02745] → cell count, replicate 1 = 662; cell count, replicate 2 = 497
GluProRS (GeneID 42834) [DRSC14095] → infection score, replicate 1 = 1.07; infection score, replicate 2 = 11.9; cell count, replicate 1 = 5396; cell count, replicate 2 = 5124

Next entries follow:
| gene knocked down | dsRNA | infection score, replicate 1 | infection score, replicate 2 | cell count, replicate 1 | cell count, replicate 2 |
| --- | --- | --- | --- | --- | --- |
| CG1840 (GeneID 32150) | DRSC19806 | 2.29 | 2.32 | 6248 | 6563 |
| CG1840 (GeneID 32150) | DRSC25112 | 4.27 | 5.16 | 6185 | 6486 |
| DopEcR (GeneID 38539) | DRSC08529 | 10.2 | 3.05 | 6559 | 6927 |
| cana + CG33695 | DRSC23517 | 4.44 | 1.86 | 6172 | 6173 |
| CG1537 (GeneID 32037) | DRSC19662 | 8.66 | 16.2 | 4490 | 6280 |
| bcd + CR14578 | DRSC20984 | 1.36 | 2.02 | 6534 | 6571 |
| CG17778 (GeneID 30996) | DRSC18504 | 1.43 | 19.1 | 6436 | 4632 |
| Chchd3 (GeneID 43672) | DRSC16981 | 1.41 | 1.54 | 6183 | 5508 |
| Chchd3 (GeneID 43672) | DRSC26451 | 4.63 | 2.9 | 6409 | 6893 |
| Mmp2 (GeneID 35997) | DRSC06698 | 4.9 | 4.9 | 6709 | 6794 |
| Mmp2 (GeneID 35997) | DRSC22024 | 10.1 | 5.23 | 6196 | 6637 |
| Mmp2 (GeneID 35997) | DRSC25458 | 5.31 | 3.45 | 6457 | 6089 |
| NUCB1 (GeneID 39978) | DRSC22137 | 0.65 | 3.29 | 6264 | 6507 |
| NUCB1 (GeneID 39978) | DRSC29109 | 9.88 | 8.88 | 3341 | 5562 |
| mr (GeneID 45906) | DRSC04332 | 27.5 | 23 | 5742 | 6132 |
| mr (GeneID 45906) | DRSC22856 | 2.28 | 8.99 | 6181 | 6231 |
| mr (GeneID 45906) | DRSC29384 | 14.2 | – | 4361 | 393 |
| Kdm5 (GeneID 33837) | DRSC03133 | 4.54 | 4.67 | 5307 | 5438 |
| Kdm5 (GeneID 33837) | DRSC29570 | 19.4 | 28.4 | 3232 | 3942 |
| Arglu1 (GeneID 34320) | DRSC02909 | 2.26 | 3.07 | 7114 | 6837 |
| Arglu1 (GeneID 34320) | DRSC28836 | 14.5 | 20.7 | 5752 | 5359 |
| Sas10 (GeneID 31447) | DRSC18355 | 5.98 | 1.29 | 5431 | 5261 |
| CG15226 (retired record) (GeneID 37353) | DRSC03829 | 4.84 | 1.76 | 5847 | 5925 |
| CG15226 (retired record) (GeneID 37353) | DRSC04233 | 7.2 | 6.58 | 6402 | 6623 |
| wit (GeneID 44096) | DRSC08741 | 11.6 | 14.1 | 5417 | 5740 |
| wit (GeneID 44096) | DRSC26091 | 9.58 | 1.51 | 5949 | 6871 |
| Mur29B (GeneID 319014) | DRSC01018 | 4.05 | 7.17 | 6415 | 6210 |
| Mur29B (GeneID 319014) | DRSC02376 | 9.48 | 11.5 | 5275 | 2610 |
| CG14244 (GeneID 50080) | DRSC14739 | – | – | 348 | 341 |
| CG6231 (GeneID 42339) | DRSC15997 | 7.12 | 0.86 | 5979 | 7077 |
| ocm (GeneID 37874) | DRSC04360 | 10.9 | 27.5 | 5978 | 3382 |
| ocm (GeneID 37874) | DRSC26248 | 9.51 | 3.68 | 6065 | 6256 |
| CG3701 (retired record) (GeneID 37568) | DRSC04408 | – | 24.7 | 447 | 4230 |
| CG3701 (retired record) (GeneID 37568) | DRSC04409 | 12.3 | 20.2 | 5200 | 2097 |
| Ir94d (GeneID 7354412) | DRSC21568 | 2.54 | 2.68 | 6172 | 6502 |
| fz2 (GeneID 40090) | DRSC10087 | 7.29 | 7.8 | 5141 | 5679 |
| fz2 (GeneID 40090) | DRSC11349 | 5.68 | 4.63 | 6024 | 6067 |
| aft (GeneID 37034) | DRSC07576 | 10.7 | 17.2 | 5787 | 5840 |
| saturn (GeneID 317880) | DRSC09303 | 1.31 | 4.87 | 5892 | 6217 |
| saturn (GeneID 317880) | DRSC28436 | 24.1 | 8.06 | 5810 | 3188 |
| CG3894 (GeneID 37959) | DRSC01762 | 1.43 | 2.16 | 6277 | 6064 |
| CG3894 (GeneID 37959) | DRSC04012 | 0.51 | 0.12 | 6297 | 5923 |
| CG3894 (GeneID 37959) | DRSC04429 | 1.39 | 11.9 | 6348 | 1823 |
| Met75Ca + Met75Cb | DRSC09549 | 2.31 | 1.85 | 5669 | 5074 |
| Met75Ca + Met75Cb | DRSC11221 | 3.13 | 1.69 | 6813 | 6987 |
| Gle1 (GeneID 35849) | DRSC06485 | 10.3 | 11 | 6047 | 6761 |
| Gle1 (GeneID 35849) | DRSC29960 | 4.08 | 7.39 | 5856 | 5565 |
| Gpxl (GeneID 37194) | DRSC06538 | 1.09 | 3.39 | 6157 | 6216 |
